Test results from US10676509B2, “Surface-immobilized antimicrobial peptoids” (Northwestern University, priority 2008, dated 2020).
Starred links: 1 amine or outer side, 2 acyl side, 3 side chain; linkers in the order of their positions; H or OH if unused. Non-standard residues stand in square brackets, D forms with d. Residues, ends and D or L forms follow the SMILES beside them. N(1S-Me-propyl)Gly = CC[C@H](C)NCC(=O)O; Dopa = N[C@@H](Cc1ccc(O)c(O)c1)C(=O)O; X1 = O=C(CN(CC(F)(F)F)[*:1])[*:2]; Nspe = C[C@H](NCC(=O)O)c1ccccc1; Nlys = NCCCCNCC(=O)O; Nme = COCCNCC(=O)O

Test system: human serum protein
Test: Short-term (20 min) human serum protein adsorption on modified TiO2 sensors using OWLS
Settings: for Serum protein adsorption: compared with unmodified TiO2 or PMP1-modified sensors

With `COCCN(CC(=O)N(CCOC)CC(=O)N(CCOC)CC(=O)N(CCOC)CC(=O)N(CCOC)CC(=O)N(CCOC)CC(=O)N(CCOC)CC(=O)N(CCOC)CC(=O)N(CCOC)CC(=O)N(CCOC)CC(=O)N(CCOC)CC(=O)N(CCOC)CC(=O)N(CCOC)CC(=O)N(CCOC)CC(=O)N(CCOC)CC(=O)N(CCOC)CC(=O)N(CCOC)CC(=O)N(CCOC)CC(=O)N(CCOC)CC(=O)N(CCOC)CC(=O)N[C@@H](Cc1ccc(O)c(O)c1)C(=O)N[C@@H](CCCCN)C(=O)N[C@@H](Cc1ccc(O)c(O)c1)C(=O)N[C@@H](CCCCN)C(=O)N[C@@H](Cc1ccc(O)c(O)c1)C(N)=O)C(C)=O` [PMP1, (Nme)20-(DOPA-Lys)2-DOPA] (Ac-[Nme][Nme][Nme][Nme][Nme][Nme][Nme][Nme][Nme][Nme][Nme][Nme][Nme][Nme][Nme][Nme][Nme][Nme][Nme][Nme][Dopa]K[Dopa]K[Dopa]-NH2; N-terminus and C-terminus assumed) the “Adsorbed mass Serum” value (Table 7, human serum, 20 min, 37° C., OWLS, mean ± SD) was 15 ± 15 ng/cm^2.

For `COCCN(CC(=O)N(CCOC)CC(=O)N(CCOC)CC(=O)N(CCOC)CC(=O)N(CCOC)CC(=O)N(CCOC)CC(=O)N(CCOC)CC(=O)N(CCOC)CC(=O)N(CCOC)CC(=O)N(CCOC)CC(=O)N(CC(=O)N[C@@H](Cc1ccc(O)c(O)c1)C(=O)N[C@@H](CCCCN)C(=O)N[C@@H](Cc1ccc(O)c(O)c1)C(=O)N[C@@H](CCCCN)C(=O)N[C@@H](Cc1ccc(O)c(O)c1)C(N)=O)CC(F)(F)F)C(=O)CN(CCOC)C(=O)CN(CCOC)C(=O)CN(CCOC)C(=O)CN(CCOC)C(=O)CN(CCOC)C(=O)CN(CCOC)C(=O)CN(CCOC)C(=O)CN(CCOC)C(=O)CN(CCOC)C(=O)CN(CCOC)C(=O)CN(C(=O)CN(C(=O)CN(CCCCN)C(=O)CN(C(=O)CN(C(=O)CN(CCCCN)C(=O)[C@@H]1CCCN1C(=O)CN(C(=O)CN(CCCCN)C(=O)CN(C(=O)CN(C(=O)CNCCCCN)[C@@H](C)c1ccccc1)[C@@H](C)c1ccccc1)[C@@H](C)c1ccccc1)[C@@H](C)c1ccccc1)[C@@H](C)c1ccccc1)[C@@H](C)c1ccccc1)[C@@H](C)c1ccccc1` [PMP1-AMP] (H-[Nlys][Nspe][Nspe][Nlys][Nspe]P[Nlys][Nspe][Nspe][Nlys][Nspe][Nspe][Nme][Nme][Nme][Nme][Nme][Nme][Nme][Nme][Nme][Nme][Nme][Nme][Nme][Nme][Nme][Nme][Nme][Nme][Nme][Nme][X1][Dopa]K[Dopa]K[Dopa]-NH2), the “Serum protein adsorption” value was “significantly lower than on unmodified TiO2 sensors”.

`CC[C@H](C)N(CC(=O)N(CCCCN)CC(=O)N(CC(=O)N(CC(=O)N(CCCCN)CC(=O)N(CC(=O)N(CC(=O)N(CCCCN)CC(=O)N(CC(=O)N(CC(=O)N(CCOC)CC(=O)N(CCOC)CC(=O)N(CCOC)CC(=O)N(CCOC)CC(=O)N(CCOC)CC(=O)N(CCOC)CC(=O)N(CCOC)CC(=O)N(CCOC)CC(=O)N(CCOC)CC(=O)N(CCOC)CC(=O)N(CCOC)CC(=O)N(CCOC)CC(=O)N(CCOC)CC(=O)N(CCOC)CC(=O)N(CCOC)CC(=O)N(CCOC)CC(=O)N(CCOC)CC(=O)N(CCOC)CC(=O)N(CCOC)CC(=O)N(CCOC)CC(=O)N(CC(=O)N[C@@H](Cc1ccc(O)c(O)c1)C(=O)N[C@@H](CCCCN)C(=O)N[C@@H](Cc1ccc(O)c(O)c1)C(=O)N[C@@H](CCCCN)C(=O)N[C@@H](Cc1ccc(O)c(O)c1)C(N)=O)CC(F)(F)F)[C@@H](C)CC)[C@@H](C)CC)[C@@H](C)CC)[C@@H](C)CC)[C@@H](C)CC)[C@@H](C)CC)C(=O)CN(C(=O)CNCCCCN)[C@@H](C)CC` [PMP1-C, reference compound] (H-[Nlys][N(1S-Me-propyl)Gly][N(1S-Me-propyl)Gly][Nlys][N(1S-Me-propyl)Gly][N(1S-Me-propyl)Gly][Nlys][N(1S-Me-propyl)Gly][N(1S-Me-propyl)Gly][Nlys][N(1S-Me-propyl)Gly][N(1S-Me-propyl)Gly][Nme][Nme][Nme][Nme][Nme][Nme][Nme][Nme][Nme][Nme][Nme][Nme][Nme][Nme][Nme][Nme][Nme][Nme][Nme][Nme][X1][Dopa]K[Dopa]K[Dopa]-NH2) was tested, and the “Serum protein adsorption” value was “significantly lower than on unmodified TiO2 sensors”.
